Pooled drug test results. Numbers come from NIAID ChemDB, via PubChem.

Common to all: tests on isolated targets; target: CCR5; endpoint: IC50

Lines come from different laboratories, so protocols vary. ICn: concentration for n% inhibition. An empty or dashed field is not shown.

| smiles | mutations | method | value |
|---|---|---|---|
| COc1cccc(C(CCN2CCC(c3ccccc3)CC2)CN(C)S(=O)(=O)c2ccccc2)c1 | - | radioligand binding / binding | <10 µM |
| CN(CC(CCN1CCC(c2ccccc2)CC1)c1ccccc1)S(=O)(=O)c1ccccc1 | - | radioligand binding / binding | 0.12 µM |
| C=CCN(C(=O)OCc1ccc([N+](=O)[O-])cc1)C1CCN(CC[C@](C)(CN(C)S(=O)(=O)c2ccccc2)c2ccccc2)CC1 | CCR5-Y37A | radiometric | 0.0013 µM |
| CN(CC(C)(CCN1CCC2(CC1)CS(=O)(=O)c1ccccc12)c1ccccc1)S(=O)(=O)c1ccccc1 | - | radioligand binding / binding | 0.044 µM |
| CN(C[C@@H](CCN1CCC2(CC1)CS(=O)c1ccccc12)c1ccc(Cl)cc1)S(=O)(=O)c1ccccc1 | - | radioligand binding / binding | 0.24 µM |
| CN(C[C@@H](CCN1CCN(c2ccccc2)CC1)c1cccc(Cl)c1)S(=O)(=O)c1ccccc1 | - | radioligand binding / binding | 2.4 µM |
| CCCC(CCN1CCC(c2ccccc2)CC1)CN(C)S(=O)(=O)c1ccccc1 | - | radioligand binding / binding | >10 µM |
| CCN(C(=O)OCc1ccccc1)C1CCN(CC[C@](C)(CN(C)S(=O)(=O)c2ccccc2)c2ccccc2)CC1 | - | radiometric | 0.004 µM |
| CN(CCC(CCN1CCC2(CC1)CS(=O)(=O)c1ccccc12)c1ccccc1)S(=O)(=O)c1ccccc1 | - | radioligand binding / binding | 0.34 µM |
| CC(C)C(=O)N1C[C@H](CN2CCC(c3ccccc3)CC2)[C@@H](c2ccccc2)C1 | CCR5-Y251A | radiometric | 9.8 µM |
| CN(C[C@@H](CCN1CCC(O)(CCCc2ccccc2)CC1)c1cccc(Cl)c1)S(=O)(=O)c1ccccc1 | - | radioligand binding / binding | 0.1 µM |
| CN(C[C@@H](CCN1CCC2(CC1)CS(=O)c1ccccc12)c1cccc(Cl)c1)S(=O)(=O)c1ccccc1 | - | radioligand binding / binding | 0.01 µM |
| CN(C[C@@H](CCNCCCc1ccccc1)c1cccc(Cl)c1)S(=O)(=O)c1ccccc1 | - | radioligand binding / binding | >10 µM |
| CCN(C(=O)OCc1ccccc1)C1CCN(CCC(/C=N/O)(CN(C)S(=O)(=O)c2ccccc2)c2ccccc2)CC1 | - | radioligand binding / binding | 0.027 µM |
| CN(C[C@@H](CCN1CCC(c2ccccc2)CC1)c1cccc(Cl)c1)S(=O)(=O)c1ccccc1 | - | radioligand binding / binding | 0.04 µM |
| CN(CC(CCN1CCC2(CC1)CSc1ccccc12)c1cccs1)S(=O)(=O)c1ccccc1 | - | radioligand binding / binding | 1 µM |
| CN(C[C@@H](CCN1CCC2(CC1)CN(S(C)(=O)=O)c1ccccc12)c1ccc(Cl)c(Cl)c1)S(=O)(=O)c1ccccc1 | - | radioligand binding / binding | 0.5 µM |
| CN(CC(CN1CCC2(CC1)CS(=O)c1ccccc12)c1ccccc1)S(=O)(=O)c1ccccc1 | - | radioligand binding / binding | >10 µM |
| CN(Cc1ccccc1)C(=O)NC1CCN(CCC(CN(C)S(=O)(=O)c2ccccc2)c2ccccc2)CC1 | - | radioligand binding / binding | 0.5 µM |
| CN(CC(CCN1CCC(c2ccccc2)CC1)c1ccccn1)S(=O)(=O)c1ccccc1 | - | radioligand binding / binding | <10 µM |

Repeating the final 3 entries:

smiles,mutations,method,value
CN(CC(CN1CCC2(CC1)CS(=O)c1ccccc12)c1ccccc1)S(=O)(=O)c1ccccc1,-,radioligand binding / binding,>10 µM
CN(Cc1ccccc1)C(=O)NC1CCN(CCC(CN(C)S(=O)(=O)c2ccccc2)c2ccccc2)CC1,-,radioligand binding / binding,0.5 µM
CN(CC(CCN1CCC(c2ccccc2)CC1)c1ccccn1)S(=O)(=O)c1ccccc1,-,radioligand binding / binding,<10 µM